According to PubChem BioAssay AID1445 (SRMLSC, 2008):
This is a selection; strong and weak results do not stand in their true shares. Potency and affinity values are given separately. Active and inactive are the calls of the source.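 Rule for the calls: active = primary inhibition above the hit cutoff, then over 50% inhibition at one or more dose response concentrations (cut at about 23% in these data, passing the limit was not always enough); inconclusive = conflicting primary data, or primary hits not chosen for dose response; inactive = low primary inhibition, or under 50% at every dose.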

The chains behind the UniProt entries cited, without tags or fusion partners.
UniProt O96935, whole entry: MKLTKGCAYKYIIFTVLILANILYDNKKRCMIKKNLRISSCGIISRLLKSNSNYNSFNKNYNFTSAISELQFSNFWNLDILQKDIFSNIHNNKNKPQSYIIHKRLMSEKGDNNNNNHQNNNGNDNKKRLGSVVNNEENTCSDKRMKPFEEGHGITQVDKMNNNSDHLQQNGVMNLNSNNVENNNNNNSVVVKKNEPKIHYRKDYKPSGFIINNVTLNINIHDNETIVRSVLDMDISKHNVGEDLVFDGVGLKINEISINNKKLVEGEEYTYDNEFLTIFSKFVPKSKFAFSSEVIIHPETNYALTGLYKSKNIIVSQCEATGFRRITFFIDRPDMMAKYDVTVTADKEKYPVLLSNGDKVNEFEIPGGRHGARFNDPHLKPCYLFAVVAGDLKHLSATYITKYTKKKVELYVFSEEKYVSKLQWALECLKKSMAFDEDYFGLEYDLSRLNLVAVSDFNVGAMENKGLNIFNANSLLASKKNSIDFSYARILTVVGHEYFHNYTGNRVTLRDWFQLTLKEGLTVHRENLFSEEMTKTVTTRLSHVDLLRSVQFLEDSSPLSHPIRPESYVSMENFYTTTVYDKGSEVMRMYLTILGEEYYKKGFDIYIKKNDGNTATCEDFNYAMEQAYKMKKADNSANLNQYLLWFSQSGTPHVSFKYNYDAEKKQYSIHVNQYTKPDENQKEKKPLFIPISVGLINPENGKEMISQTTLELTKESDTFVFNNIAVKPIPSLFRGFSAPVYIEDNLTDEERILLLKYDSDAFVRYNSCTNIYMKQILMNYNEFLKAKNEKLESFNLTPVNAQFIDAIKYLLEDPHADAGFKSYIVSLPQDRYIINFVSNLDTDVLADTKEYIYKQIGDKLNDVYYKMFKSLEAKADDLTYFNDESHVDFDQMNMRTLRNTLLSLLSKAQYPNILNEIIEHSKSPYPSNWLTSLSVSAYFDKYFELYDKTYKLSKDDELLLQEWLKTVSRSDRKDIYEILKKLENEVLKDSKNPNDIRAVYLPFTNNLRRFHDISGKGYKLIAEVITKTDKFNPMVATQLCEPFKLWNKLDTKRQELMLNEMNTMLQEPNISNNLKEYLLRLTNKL

molecular target: Aminopeptidase N (Plasmodium falciparum (isolate 3D7)) (UniProt O96935); assay: malaria alanyl aminopeptidase activity blockers – biochemical, fluorogenic H-Leu-NHMec substrate, 1536-well (AID 1445); conditions: recombinant M1AAP, H-Leu-NHMec fluorogenic kinetic assay; at 30 µM; hits give high values;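 note: plate controls were DMSO full reaction for no effect and no enzyme background for full effect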

Row | Compound | inhibition
1 | COc1ccccc1OP(C)(=O)Nc1ccccc1 (stereo not drawn) | inactive: 2.86%
2 | CP(=S)(Nn1cnnc1)Oc1ccccc1 (stereo not drawn) | inactive: 5.65%
3 | O=[N+]([O-])c1ccc2c(c1)C=Nc1ccccc1O2 | inactive: 4.26%
4 | CC(C)(C)c1ccc(OP(C)(=O)Nc2ccc(SC(F)(F)F)cc2)cc1 (stereo not drawn) | inactive: 2.1%
5 | Cc1cccc(C)c1OP(C)(N)=O (stereo not drawn) | inactive: -1.17%
6 | Cc1cc(C)cc(OP(C)(N)=O)c1 (stereo not drawn) | inactive: 1.35%
7 | COc1ccccc1OP(C)(=O)Nc1cc(Cl)ccc1C (stereo not drawn) | inactive: 5.12%
8 | COc1ccc(OP(C)(=O)Nc2cccc(F)c2)cc1 (stereo not drawn) | inactive: 13.1%
9 | COc1ccccc1OP(C)(=O)Nc1ccc(C)cc1 (stereo not drawn) | inactive: -2.09%
10 | Cc1ccc(NP(C)(=O)Oc2ccccc2)c(C)c1 (stereo not drawn) | inactive: 1.78%
11 | CCOC(=O)c1ccc(NP(C)(=O)Oc2ccccc2)cc1 (stereo not drawn) | inactive: 3.8%
12 | CCN(CC)CCCOC(=O)C(O)(c1ccccc1)c1ccccc1 | inactive: 9.33%
13 | CCOC(=O)c1ccc(NP(C)(=O)Oc2cc(C)cc(C)c2)cc1 (stereo not drawn) | inactive: 16.1%
14 | Cc1cc(C)cc(OP(C)(=O)Nc2ccc(C)cc2C)c1 (stereo not drawn) | inactive: 5.16%
15 | COc1ccccc1OP(C)(=O)Nc1cccc(Br)c1 (stereo not drawn) | inactive: -3.01%
16 | Cc1ccc(C)c(NP(C)(=O)Oc2ccccc2)c1 (stereo not drawn) | inactive: -0.32%
17 | CP(=O)(Nc1cccc(Br)c1)Oc1ccccc1 (stereo not drawn) | inactive: -1.1%
18 | Cc1cc(C)cc(OP(C)(=O)Nc2ccccn2)c1 (stereo not drawn) | inactive: -0.5%
19 | O=C(O)c1cccc(Nc2c([N+](=O)[O-])cc([N+](=O)[O-])cc2[N+](=O)[O-])c1 | inactive: 2%
20 | CC1=NCCc2c1[nH]c1ccccc21.O=[N+]([O-])c1cc([N+](=O)[O-])c(O)c([N+](=O)[O-])c1 | inactive: 13.1%
21 | O=[N+]([O-])c1cc([N+](=O)[O-])c(Nc2nnnn2CCO)c([N+](=O)[O-])c1 | inactive: 11.2%
22 | CCOC(=O)C(CC)C1=NC(C)(C)Cc2ccccc21.O=[N+]([O-])c1cc([N+](=O)[O-])c(O)c([N+](=O)[O-])c1 (stereo not drawn) | inactive: 3.76%
23 | CP(=O)(Nc1ccc(SC(F)(F)F)cc1)Oc1ccccc1 (stereo not drawn) | inactive: 6.41%
24 | CCCOc1ccc(NP(C)(=O)Oc2ccc(Cl)cc2)cc1 (stereo not drawn) | inactive: 10.5%
25 | CN1CCCCC1COC(=O)C1(O)c2ccccc2CCc2ccccc21 (stereo not drawn) | inactive: 2.42%
26 | COc1ccccc1OP(C)(=O)Nc1c(C)cccc1C (stereo not drawn) | inactive: 3.28%
27 | O=[N+]([O-])c1cc([N+](=O)[O-])c(-n2nnc3ccccc32)c([N+](=O)[O-])c1 | inactive: 3.24%
28 | Cc1nc2ccc3ccccc3c2s1.O=[N+]([O-])c1cc([N+](=O)[O-])c(O)c([N+](=O)[O-])c1 | inactive: 8.29%
